These are literature values, as cited in article PMC8763392.

Sequences of proteins named here, by UniProt entry; tags and fusion partners are left off. Residues count along the entry.
UniProt P02708, 21-457: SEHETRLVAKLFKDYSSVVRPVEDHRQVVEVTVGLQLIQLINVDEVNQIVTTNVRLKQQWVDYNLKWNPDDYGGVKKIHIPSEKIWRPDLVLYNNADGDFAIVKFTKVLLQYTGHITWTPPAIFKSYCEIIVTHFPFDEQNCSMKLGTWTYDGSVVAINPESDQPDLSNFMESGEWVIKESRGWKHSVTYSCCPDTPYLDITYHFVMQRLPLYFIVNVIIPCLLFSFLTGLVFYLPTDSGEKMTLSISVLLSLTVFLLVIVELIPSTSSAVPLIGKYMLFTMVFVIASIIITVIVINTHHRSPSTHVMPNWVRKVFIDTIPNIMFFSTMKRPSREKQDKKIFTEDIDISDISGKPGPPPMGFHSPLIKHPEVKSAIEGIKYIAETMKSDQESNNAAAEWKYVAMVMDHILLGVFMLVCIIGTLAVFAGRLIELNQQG
UniProt P04756, 21-457: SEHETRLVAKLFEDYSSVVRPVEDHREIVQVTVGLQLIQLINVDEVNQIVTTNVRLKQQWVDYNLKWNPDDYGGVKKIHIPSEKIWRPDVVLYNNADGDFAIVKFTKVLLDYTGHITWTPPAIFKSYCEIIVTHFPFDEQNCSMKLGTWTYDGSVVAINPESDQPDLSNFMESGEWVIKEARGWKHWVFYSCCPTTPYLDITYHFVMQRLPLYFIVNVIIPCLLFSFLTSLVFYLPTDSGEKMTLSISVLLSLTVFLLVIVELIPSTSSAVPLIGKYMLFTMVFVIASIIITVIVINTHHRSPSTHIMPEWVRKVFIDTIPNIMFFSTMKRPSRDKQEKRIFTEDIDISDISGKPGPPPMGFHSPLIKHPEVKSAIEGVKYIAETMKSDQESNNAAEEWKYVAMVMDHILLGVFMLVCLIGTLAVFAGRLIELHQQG

The target of data set [1] is muscle-type nAChR (Homo sapiens) (UniProt P02708). The conditions noted are these: cited from earlier work.
Data set [2] addresses nAChR α1 (Mus musculus) (UniProt P04756). The conditions noted are these: cited from earlier work.

For the substance α-bungarotoxin (from UniProt P60615), the Kd in data set [1] is 0.27 nM; in data set [2], 0.2 nM.
